Measurements reported in publication PMC8413711.

Molecular target: SARS-CoV-2 RBD (SARS-CoV-2) (UniProt P0DTC2)
Assay: SPR

## BD-368-2
  Kd: 0.169 nM
